Data published in patent publication US10471082B2, “Flavivirus protease inhibitors” (priority 2012, dated 2019).
The source's definition of the ratio is not given here.

Key:
[1] = tested on: WNV replicon-expressing Vero cells; assay: WNV replicon assay (Renilla luciferase); format: cell-based
Excerpt: (§1) The efficacy of the compounds was also examined in cell-based assays performed in mammalian cells. Mammalian cells are the host for replication of the virus; a compound added to the growth medium of the mammalian cell in which a replicon RNA or dengue virus is replicating, the compound of interest could permeate the cell and interfere with the replication process. If there is a quantitative read-out of replication efficiency, the potency of the inhibitor compound could be evaluated in a quantifiable manner. There are two types of quantifiable assays available both employing mammalian cells; the first is the Baby Hamster Kidney (BHK) or monkey kidney (Vero) cells harboring DENV-2 or WNV replicon RNA, respectively, in a continuously replicating state and these are “stable replicon-expressing” cells. […] The inhibition of infectivity of the virus by the compound is measured by the extent of reduction of the titer of virus determined by plaque assay.
(§2) Both drug efficacy and cytotoxicity were measured using the same experimental plate. […] Cells were then washed with PBS and the luminescence signal from Renilla luciferase activity was read using the Renilla luciferase assay kit (Promega Corp; Fitchburg, Wis.) using a luminometer (Berthold Technologies, Inc.; Oak Ridge, Tenn.). […] The EC50 and CC50 values of selected compounds were calculated similar to IC50s using GraphPad Prism v5. […]

[2] = tested on: DENV2 replicon-expressing BHK21 cells; assay: DENV2 replicon assay (Renilla luciferase); format: cell-based
Excerpt: as §1, §2

Row | SMILES | Therapeutic index (TI) [1] | Therapeutic index (TI) [2]
1 | Cc1ccc(C2=NC(=O)/C(=C/c3cc(O)c(O)c(Br)c3)S2)cc1 [Compound III] | 35 | 56
2 | CCOC(=O)c1oc2c(O)c(O)ccc2c(=O)c1-c1cnn(-c2ccccc2)c1 [Compound V] | 17 | 17
